In data set [1] the test system is T. cruzi (strain CL-Brener) epimastigote. Nature of the data set: Trypanocidal activity on epimastigotes (resazurin). Conditions: for Epimastigote SI: SI = CC50 (VERO cell)/IC50 epimastigote. It counts as cell-based, Trypanosoma cruzi. As to the method: (§1) VERO (ATCC CCL81) and RAW 264.7 cells (ATCC TIB71) were maintained in RPMI-1640 supplemented with 10% fetal bovine serum (FBS) (Sigma Aldrich, St. Louis, MO, USA) without phenol red at 37 °C and 5% CO2 [14]. […] Trypomastigotes were obtained from monolayers of infected VERO cells grown at 37 °C in an atmosphere with 5% CO2 in RPMI-1640, pH 7.4, supplemented with 10% FBS and 100 μg/mL gentamicin. […] Then, 2.5 × 10^5 epimastigotes/mL were resuspended in 150 μL and added to the microplates. After 48 h, resazurin was added (20 μL/well of resazurin −3 mM), incubated for further 24 h, and fluorescence was recorded as described above. Nanostructures’ effect on amastigotes was accessed in VERO cell line grown in RPMI medium containing 10% FBS and seeded at a density of 1 × 10^4 cells/well in 24-well microplates. After 48 h, cells were infected with trypomastigotes at a ratio of 10:1 during 24 h, followed by removal of reminiscent extracellular parasites by washing with PBS. […] Cells were fixed and stained with Kit for Fast Staining in Haematology (Figure S2), and the number of amastigotes was determined by counting 200 cells for each experimental group distributed in random microscopic fields. The IC50 values were determined by nonlinear regression in GraphPad Prism version 7.0 (GraphPad Software, San Diego, CA, USA). Selectivity indices (SI) were calculated using the formula: SI = CC50 cytotoxicity in VERO cells/IC50 cytotoxicity in intracellular amastigotes.
On the technique in general: The colour change of resazurin is a common sign of viable cells or microbes.

In data set [2] the test system is T. cruzi intracellular amastigotes. Put plainly: Trypanocidal activity on intracellular amastigotes in infected VERO cells (counting of stained cells). Particulars: SI = CC50 (VERO cell)/IC50 intracellular amastigotes. Type of data set: cell-based, Trypanosoma cruzi. As to the method: as §1, with “microplates.” for “microplates. After 48 h, cells were infected with trypomastigotes at a ratio of 10:1 during 24 h, followed by removal of reminiscent extracellular parasites by washing with PBS.”

For the compound `CCCCNc1c(N(C)CCCN(C)C)c(=O)c1=O` [S, N, N’-Squaramide 17], in data set [1], the “Epimastigote SI” value worked out at 56.11. Also, in data set [1] (compared with BZ SI = 17.99), the “SI for epimastigotes relative to BZ” value was determined as 3 times. In data set [2], the “Amastigotes in VERO Cell SI” value was 14.38.

Take `O=C(Cn1ccnc1[N+](=O)[O-])NCc1ccccc1` [BZ, benznidazole, reference compound]: the “Epimastigote SI” value in data set [1] amounted to 17.99. Further, the “Amastigotes in VERO Cell SI” value in data set [2] came to 59.76.

These data come from PMC7730638, “Liposomes Composed by Membrane Lipid Extracts from Macrophage Cell Line as a Delivery of the Trypanocidal N,N’-Squaramide 17 towards Trypanosoma cruzi” (Materials, 2020).
